# Literature values in US9474793B2, “Vaccines and methods for prevention and treatment of drug-resistant HIV-1 and hepatitis B virus” (The United States of America, as represented by the …, priority 2005, dated 2016).
# Tested on: HIV variant with M184I or M184V in RT
# Details: M184I / M184V mutations; Kanagawa et al. 1993; cited from earlier work
smiles,measurement,value
"Nc1ccn([C@H]2CS[C@@H](CO)O2)c(=O)n1 [lamivudine, (−)2′,3′-dideoxy-3′-thiacytidine]",decrease in sensitivity,"> 1,000 fold"
